For at least one entry, the source does not settle the construct or the ends of the probe. For part of these data: Protein sequences can lack the tags named with them.
Columns and labels:
Assay in all cases: EMSA
SirR = target: T1, SirR (UniProt Q5HRA0); conditions: purified recombinant protein
T1 sequence (looked up, limits assumed): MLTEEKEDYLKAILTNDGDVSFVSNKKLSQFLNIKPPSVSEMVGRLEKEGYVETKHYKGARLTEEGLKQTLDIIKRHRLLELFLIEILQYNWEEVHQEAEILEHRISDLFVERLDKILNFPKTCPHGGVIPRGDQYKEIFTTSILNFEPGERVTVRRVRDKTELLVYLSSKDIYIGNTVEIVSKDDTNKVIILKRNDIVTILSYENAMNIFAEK

[1] = target: EfaR (Enterococcus faecalis) (UniProt Q93CH5); conditions: purified recombinant protein; protein details: untagged (pQN vector)
[2] = target: DtxR (Corynebacterium diphtheriae) (UniProt P0DJL7); conditions: purified recombinant protein

Measured: binding result

GCATTGATTTCAGAGCACCCTTATAATTAGGATAGCTTTACCTAATTATTTTATGAG (double strand) [toxPO]
binds: all assays above

From patent US20060167238
